Molecular target: NleE (Escherichia coli, UniProt B7UI22)
Assay: 3H-SAM labelling of GST-NZF proteins; native-PAGE methylation assay
Settings: labelled compound; methyl acceptors TAB2-NZF, TAB3-NZF, ZRANB3-NZF and Vps36-NZF; native-PAGE assay with 0.8 mM SAM, pH 7.5, 37 C

The chains behind the UniProt entries cited, without tags or fusion partners. Where a name states a change or a piece, a line headed by the entry shows the natural chain unless it says otherwise.
UniProt B7UI22: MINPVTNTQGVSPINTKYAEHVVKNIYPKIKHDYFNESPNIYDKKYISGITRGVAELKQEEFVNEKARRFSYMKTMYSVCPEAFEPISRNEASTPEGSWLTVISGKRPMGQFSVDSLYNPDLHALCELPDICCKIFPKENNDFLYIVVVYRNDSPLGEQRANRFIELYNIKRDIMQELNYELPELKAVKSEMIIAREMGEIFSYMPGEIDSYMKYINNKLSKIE

## C[S+](CC[C@H](N)C(=O)O)C[C@H]1O[C@@H](n2cnc3c(N)ncnc32)[C@H](O)[C@@H]1O (stereo partly shown)
  3H-SAM labelling of GST-NZF proteins; native-PAGE methylation assay: ^3H-SAM labeling assay of NleE methylation of different GST-NZFs
